Anti-infective test results gathered from many reports (values: NIAID ChemDB through PubChem).

Common to all: tests in culture; organism: Candida albicans

A number after MIC or MFC names an inhibition level or a share of isolates.

smiles,method,read-out,setting,strain or isolate,result
Cc1ccc(-c2nn(-c3ccccc3)cc2/C=N/NC(=O)c2sc(=S)n(-c3ccccc3)c2N)cc1,-,MIC,-,-,>200 µg/mL
CCC(C)Oc1ccc(O)c(C(=O)NN)c1,-,MIC,-,Clinical isolates,125–250 µg/mL
COc1cc(OC/C(=N/O)c2ccccc2)cc(OC)c1OC,broth dilution,MIC,24 h,ATCC 10231,>125 µg/mL
Cc1ccc(-c2nn(-c3ccccc3)cc2/C=N/n2cnc3c(sc(=S)n3-c3ccc(C)cc3)c2=O)cc1,-,MIC,-,-,200 µg/mL
CCOC(=O)On1cn[n+](C[C@](O)(c2ccc(F)cc2F)[C@@H](C)N2CCN(c3ccc(-n4cnnn4)cc3)C2=O)c1,-,MIC,-,TA,0.13 µg/mL
Cc1nn(-c2ccccc2)c2c1C(c1ccc(O)cc1)c1c(nc(=S)[nH]c1N)O2,-,MIC,-,MTCC 227,250 µg/mL
O=c1c2sc(=S)n(-c3ccccc3)c2nc(Cl)n1-c1ccccc1,-,MIC,-,DSM 70443,70 µg/mL
Cc1nn(-c2ccccc2)c2c1C(c1ccccc1)c1c(nc(=O)[nH]c1N)O2,-,MIC,-,MTCC 227,250 µg/mL
Cc1cccc(-n2c(=S)[nH]c3c(sc(=S)n3-c3cccc(C)c3)c2=O)c1,-,MIC,-,DSM 70443,70 µg/mL
O=C(CN1CCCCC1)N/N=C\C(=O)c1ccc(Oc2ccccc2)cc1,-,MIC,-,-,>50 µg/mL
Cc1nn(-c2ccccc2)c2c1C(c1ccccc1Cl)c1c(nc(=O)[nH]c1N)O2,-,MIC,-,MTCC 227,500 µg/mL
NC(=NC1CCCC1)c1ccc(-c2ccc(-c3ccc(C(N)=NC4CCCC4)cc3)o2)cc1,-,MFC,-,Isolate 1 (strain 2-76),25 µg/mL
O=[N+]([O-])c1ccc(OC(CCn2ccnc2)c2ccccc2)cc1,-,MFC,-,20 strains,67.2 µg/mL
CCCCN1/C(=C2\CCN(Cc3ccccc3)CC2=O)Sc2ccccc21,-,MIC,-,ATCC 10231,100 µg/mL
COc1ccc(OCC(=O)c2ccccc2)cc1,broth dilution,MIC,48 h,ATCC 10231,>125 µg/mL
CNc1ccc(C(=O)CC(O)CCC(C)C2OC(=O)CC(O)CC(=O)CC(O)CC(O)CC(O)CC(O)CC3(O)CC(O)C(C(=O)NCCN(C)C)C(CC(O[C@@H]4O[C@H](C)[C@@H](O)[C@H](NC(=O)CN5CCN(C)CC5)[C@@H]4O)/C=C/C=C/C=C/C=C\C=C/C=C/C=C/C2C)O3)cc1,-,MIC,-,200,0.06 µg/mL
O=C(Nc1nc2ccc(NC(=O)[C@@H]3CCC[C@H](NCc4ccc5ccccc5c4)C3)cc2s1)C1CCCC1,-,MFC,-,ATCC 90028,0.78 µM
COc1cc(OCc2ccccc2)ccc1C(=O)O,-,MIC,-,Clinical isolates,125–250 µg/mL
O=C(CN1CCOCC1)N/N=C\C(=O)c1ccc(Oc2ccccc2)cc1,-,MIC,-,-,>50 µg/mL
O=c1c2sc(=S)n(-c3ccccc3)c2nc(N=P(c2ccccc2)(c2ccccc2)c2ccccc2)n1-c1ccccc1,-,MIC,-,DSM 70443,>200 µg/mL
CC(N1CCN(c2ccc(-n3cnn(Cc4ccc(C(F)(F)F)cc4)c3=O)cc2)CC1)C(O)(Cn1cncn1)c1ccc(F)cc1F,-,MIC90,-,6 strains (fluconazole-resistant),0.19 µg/mL
COc1ccccc1OCC(=O)c1ccccc1,broth dilution,MIC,24 h,ATCC 10231,>125 µg/mL
FC(F)(F)c1ccc(OC(CCn2ccnc2)c2ccccc2)cc1,-,MIC90,-,20 strains,128 µg/mL
COc1cc2c3c(ccnc3c1OC)N(Cc1ccccc1)C=C2,-,MIC,-,-,>64 µg/mL
CCCCCCC(=O)/C=C1\Sc2ccccc2N1C1=CCCCCC1,-,MIC,-,ATCC 10231,>100 µg/mL
CNc1ccc(C(=O)CC(O)CCC(C)C2OC(=O)CC(O)CC(=O)CC(O)CC(O)CC(O)CC(O)CC3(O)CC(O)C(C(=O)O)C(CC(O[C@@H]4O[C@H](C)[C@@H](O)[C@H](N)[C@@H]4O)/C=C/C=C/C=C/C=C\C=C/C=C/C=C/C2C)O3)cc1,-,MIC,-,200,0.06 µg/mL
CCCC(C)Oc1ccc(O)c(C(=O)NN)c1,-,MIC,-,Clinical isolates,125–250 µg/mL
O=C(CN1CCCC1)N/N=C\C(=O)c1ccc(Sc2ccccc2)cc1,-,MIC,-,-,>50 µg/mL
COc1cc(O)c2c(c1)C(=O)c1c(cc3c(c1O)-c1c(cc(C)c(C(=O)NC(CO)C(=O)O)c1O)[C@H](OC1OC(C)C(O)C(OC4OCC(O)C(O)C4O)C1O)C3O)C2=O,-,MIC,-,SC14059 (azole-resistant),4 µg/mL
Cc1ccc(-c2nn(-c3ccccc3)cc2/C=N/N=c2\sc3c(=O)[nH]c(=S)[nH]c3n2-c2ccc(C)cc2)cc1,-,MIC,-,-,50 µg/mL
Cc1nn(-c2ccccc2)c2c1C(c1ccc(O)cc1)C(C#N)=C(N)O2,-,MIC,-,MTCC 227,150 µg/mL
COc1ccc2c(c1)S/C(=C\C(=O)C(C)C)N2C1=CCCCCC1,-,MIC,-,ATCC 10231,>100 µg/mL
Fc1ccc(CCCCn2c3c(c4cc(F)ccc42)CNCC3)cc1,-,MIC,-,ATCC 62376,0.78–3.12 µg/mL
Clc1ccc(C(CCn2ccnc2)Oc2ccc(Cl)cc2Cl)cc1,-,MIC90,-,20 strains,4 µg/mL
CCCCN1C(=O)C2(CCN(Cc3ccccc3)CC2=O)Sc2ccccc21,-,MIC,-,ATCC 10231,≥100 µg/mL
CCCCCOc1ccc(-c2cc(-c3ccc(C(=O)N[C@H]4C[C@@H](O)[C@@H](O)NC(=O)[C@@H]5[C@@H](O)[C@@H](C)CN5C(=O)[C@H]([C@H](O)CC(N)=O)NC(=O)[C@H]([C@H](O)[C@@H](O)c5ccc(O)c(OS(=O)(=O)O)c5)NC(=O)[C@@H]5C[C@@H](O)CN5C(=O)[C@H]([C@@H](C)O)NC4=O)cc3)no2)cc1,-,MIC,-,FP1839 fluconazole-resistant,0.0156 µg/mL
CC(N1CCN(c2ccc(-n3cnn(Cc4ccc(OC(F)(F)F)cc4)c3=O)cc2F)CC1)C(O)(Cn1cncn1)c1ccc(F)cc1F,-,MIC90,-,51 strains (fluconazole-susceptible),0.09 µg/mL
Cc1ccc(-c2nn(-c3ccccc3)cc2/C=N/N=c2\sc3c(=O)[nH]cnc3n2-c2ccc(C)cc2)cc1,-,MIC,-,-,100 µg/mL
C[C@@H](N1CCN(c2ccc(-n3cnnn3)cc2)C1=O)[C@](O)(Cn1c[n+](C)cn1)c1ccc(F)cc1F,-,MIC,-,TA,>16 µg/mL
CC(C)c1ccc(NC(=S)c2cc(Cl)ccc2O)cc1,-,MIC,-,ATCC 44859,>125 µM
CCCCCNC(=O)C1C(O)CC2(O)CC(O)CC(O)CC(O)CC(O)CC(=O)CC(O)CC(=O)OC(C(C)CCC(O)CC(=O)c3ccc(NC)cc3)C(C)/C=C/C=C/C=C\C=C/C=C/C=C/C=C/C(O[C@@H]3O[C@H](C)[C@@H](O)[C@H](N)[C@@H]3O)CC1O2,-,MIC,-,200,0.24 µg/mL
CCn1nc(C)c(N)c1-c1cc(C)on1,-,MFC,-,-,>200 µM
CCCOc1ccc(C(=O)O)c(OC)c1,-,MIC,-,Clinical isolates,125–250 µg/mL
CCCC(=O)/C=C1\Sc2cc(F)ccc2N1C1=CCCCCC1,-,MIC,-,ATCC 14053,≥100 µg/mL
CCn1nc(-c2cc(C)on2)cc1C,-,MFC,-,-,>200 µM
Nc1[nH]c(=O)ncc1F,-,MIC50,-,58 strains,0.12 µg/mL
Fc1ccc(C(CCn2ccnc2)Oc2ccc(Cl)cc2Cl)cc1,-,MFC90,-,20 strains,8 µg/mL
Clc1ccc(COC(Cn2ccnc2)c2ccc(Cl)cc2Cl)c(Cl)c1,-,MIC,-,-,7 µM
Fc1ccc(OC(CCn2ccnc2)c2ccccc2)c(F)c1,-,MIC,-,20 strains,44.2 µg/mL
C[C@H]1[C@H](O)[C@@H](C)/C=C/C=C/C=C/C=C/C=C/C=C/C=C/[C@H](O[C@@H]2O[C@H](C)[C@@H](O)[C@H](N)[C@@H]2O)C[C@@H]2O[C@](O)(C[C@@H](O)C[C@@H](O)CC[C@H](O)[C@@H](O)C[C@@H](O)CC(=O)O[C@H]1C)C[C@H](O)[C@H]2C(=O)O,-,MIC,-,200,0.96 µg/mL
C[C@@H](N1CCN(c2ccc(-n3cnnn3)cc2)C1=O)[C@](O)(C[n+]1cn(OC(=O)OC2COCOC2)cn1)c1ccc(F)cc1F,-,MIC,-,TA,0.06 µg/mL
CNc1ccc(C(=O)CC(O)CCC(C)C2OC(=O)CC(O)CC(=O)CC(O)CC(O)CC(O)CC(O)CC3(O)CC(O)C(C(=O)N4CCN(C)CC4)C(CC(O[C@@H]4O[C@H](C)[C@@H](O)[C@H](NC(=O)CCN5CCCCC5)[C@@H]4O)/C=C/C=C/C=C/C=C\C=C/C=C/C=C/C2C)O3)cc1,-,MIC,-,200,0.12 µg/mL
COc1cccc(OCC(=O)c2ccccc2)c1,broth dilution,MIC,24 h,ATCC 10231,>125 µg/mL
CCc1ccc(NC(=S)c2cc(Cl)ccc2O)cc1,-,MIC,-,ATCC 44859,31.3 µM
Cc1cccc(-n2c(=S)[nH]c3c(sc(=S)n3-c3ccccc3)c2=O)c1,-,MIC,-,DSM 70443,90 µg/mL
Nc1ncccc1-c1cc(Cc2ccc(COc3ccccn3)cc2)no1,broth dilution,MIC,-,8649,<0.008 µg/mL
CNc1ccc(C(=O)CC(O)CCC(C)C2OC(=O)CC(O)CC(=O)CC(O)CC(O)CC(O)CC(O)CC3(O)CC(O)C(C(=O)N4CCCCC4)C(CC(O[C@@H]4O[C@H](C)[C@@H](O)[C@H](N)[C@@H]4O)/C=C/C=C/C=C/C=C\C=C/C=C/C=C/C2C)O3)cc1,-,MIC,-,200,0.06 µg/mL
Cc1onc(-c2nn(C)c(C)c2[N+](=O)[O-])c1[N+](=O)[O-],-,MIC,-,-,>200 µM
Oc1ccc(Cl)cc1C(=S)Nc1cccc(F)c1,-,MIC,-,ATCC 44859,62.5 µM
CC(C)C(=O)On1cn[n+](C[C@](O)(c2ccc(F)cc2F)[C@@H](C)N2CCN(c3ccc(-n4cnnn4)cc3)C2=O)c1,-,MIC,-,TA,0.016 µg/mL
CCC(C)CC(C)CCCCCCCCC(=O)N[C@H]1C[C@@H](O)[C@H](NCCN)NC(=O)[C@@H]2[C@@H](O)CCN2C(=O)[C@H]([C@H](O)CCN)NC(=O)[C@H]([C@H](O)[C@@H](O)c2ccc(O)cc2)NC(=O)[C@@H]2C[C@@H](O)CN2C(=O)[C@H]([C@@H](C)O)NC1=O,broth dilution,MIC50,-,-,0.25 µg/mL
Cc1cc(-c2cc(C)n(C)n2)no1,-,MFC,-,-,>200 µM
Cc1ccc(-c2nn(-c3ccccc3)cc2/C=N/n2c(=S)[nH]c3c(sc(=S)n3-c3ccccc3)c2=O)cc1,-,MIC,-,-,>200 µg/mL
C[C@@H](c1ncncc1F)[C@](O)(Cn1cncn1)c1ccc(F)cc1F,-,MIC90,24 h,Isolate HR-Micro,0.09 µg/mL
COc1ccc(CN2C=Cc3cc(OC)c(OC)c4nccc2c34)cc1,-,MIC,-,-,>64 µg/mL
COc1cc(OCC(=O)c2ccccc2)cc(OC)c1OC,broth dilution,MIC,24 h,ATCC 10231,>125 µg/mL

For reference, 4 entries again:

| smiles | method | read-out | setting | strain or isolate | result |
|---|---|---|---|---|---|
| Clc1ccc(C(CCn2ccnc2)Oc2ccc(Cl)cc2Cl)cc1 | - | MIC90 | - | 20 strains | 4 µg/mL |
| CCn1nc(C)c(N)c1-c1cc(C)on1 | - | MFC | - | - | >200 µM |
| O=c1c2sc(=S)n(-c3ccccc3)c2nc(N=P(c2ccccc2)(c2ccccc2)c2ccccc2)n1-c1ccccc1 | - | MIC | - | DSM 70443 | >200 µg/mL |
| Fc1ccc(C(CCn2ccnc2)Oc2ccc(Cl)cc2Cl)cc1 | - | MFC90 | - | 20 strains | 8 µg/mL |

a–b is a range or a potency band. Conditions beyond the fields shown may differ between rows. An empty or dashed field is not shown.